Compound potency records, mixed from different reports. Data source: NIAID ChemDB in PubChem.

All rows: target-level tests

Two numbers with a dash give a range or band. Neighbouring rows are from separate reports. Blank or dashed fields: not listed here. ICn is the concentration giving n% inhibition. Percent inhibition refers to the dose given; in toxicity tests it is the harm to the cells.

compound | target | tested at | endpoint | species | value
FC(F)(F)c1cccc(COc2ccc(-c3cnc4c(-c5nn[nH]n5)cnn4c3C3CCCCC3)cc2)c1 | RNA-dependent RNA polymerase |  | IC50 | Hepatitis C virus | <1 µM
O=C(O)c1ccc2c(c1)nc(-c1ccc3nc(-c4cc(C(=O)N5CCCC5)ccc4-c4ccc(Cl)cc4)cnc3c1)n2C1CCCCC1 | NS5B polymerase | 33 µM | inhibition | Hepatitis C virus | 99.68%
COc1ccc(-c2cc(NS(=O)c3ccccc3C)c(C(=O)O)s2)cc1 | NS3 ATPase |  | IC50 | Hepatitis C virus | <5 µM
COc1cc(COc2ccc(-c3cnc4c(-c5nn[nH]n5)cnn4c3C3CCCCC3)cc2)cc(OC)c1 | RNA-dependent RNA polymerase |  | IC50 | Hepatitis C virus | <1 µM
CC[C@@H](C=O)NC(=O)[C@@H]1C[C@@H](OCc2ccccc2)CN1C(=O)[C@@H](NC(=O)[C@H](CSCc1ccccc1)NC(=O)c1cnccn1)C(C)C | NS3 protease |  | Ki | Hepatitis C virus | 1–100 µM
COc1nc(NCCO)nc(Nc2ccc3cn[nH]c3c2)n1 | Nonstructural protein 5B | 1 µg/mL | inhibition | Hepatitis C virus | 55%
Cc1ccc2cc(-c3ccc4cc(-c5nc6cc(C(=O)O)ccc6n5C5CCCCC5)ccc4n3)ccc2c1 | NS5B polymerase | 33 µM | inhibition | Hepatitis C virus | 99.55%
CC[C@@H](C=O)NC(=O)[C@@H]1C[C@@H](OC(=O)Nc2cccc([N+](=O)[O-])c2)CN1C(=O)[C@@H](NC(=O)[C@@H](NC(=O)c1cnccn1)C(C)C)C(C)C | NS3 protease |  | Ki | Hepatitis C virus | 1–100 µM
COc1nc(Nc2ccc3[nH]ncc3c2)nc(NC2CC2)n1 | Nonstructural protein 5B | 10 µg/mL | inhibition | Hepatitis C virus | 59%
CC[C@@H](C=O)NC(=O)[C@@H]1C[C@@H](OC(=O)C(C)C)CN1C(=O)[C@@H](NC(=O)[C@@H](NC(=O)c1cnccn1)C(C)C)C(C)C | NS3 protease |  | Ki | Hepatitis C virus | 1–100 µM
COc1ccc(-c2ccc(C(=O)O)cc2)c(-c2ccc3cc(-c4nc5cc(C(=O)O)ccc5n4C4CCCCC4)ccc3n2)c1 | NS5B polymerase | 100 µM | inhibition | Hepatitis C virus | 100%
CC(C)S(=O)(=O)Nc1cnn2c(C3CCCCC3)c(-c3ccc(OCc4ccccc4)cc3)cnc12 | RNA-dependent RNA polymerase |  | IC50 | Hepatitis C virus | >10 µM
Cc1ccc2c(c1)C(=O)N=C2N(c1cc(-c2ccccc2)sc1C(=O)O)C(C)C | NS3 ATPase |  | IC50 | Hepatitis C virus | 5–20 µM
O=C(CCCc1ccccc1)Nc1ccsc1-c1nc(C(=O)O)c(O)c(=O)[nH]1 | HCV polymerase |  | IC50 | Hepatitis C virus | <25 µM
C=CCOc1cc2c(C(=O)NC)c(-c3ccc(F)cc3)oc2cc1N(CC=C)S(C)(=O)=O | Nonstructural protein 5B |  | IC50 | Hepatitis C virus | ≤0.5 µM
COc1nc(NCCN(C)C)nc(Nc2ccc3[nH]ncc3c2)n1 | DNA polymerase | 1 µg/mL | inhibition | Hepatitis B virus | 40%
O=C(O)c1cc2nc(-c3ccc(Oc4ccccc4)cc3)cc(-c3ccccc3Cl)n2n1 | RNA-dependent RNA polymerase |  | IC50 | Hepatitis C virus | 1–10 µM
O=C(CNc1ccsc1-c1nc(C(=O)O)c(O)c(=O)[nH]1)Nc1ccccc1Cl | HCV polymerase |  | IC50 | Hepatitis C virus | <25 µM
COCCNc1nc(Nc2ccc3cn[nH]c3c2)nc(OC)n1 | DNA polymerase |  | IC50 | Hepatitis B virus | <0.01 µg/mL
CNC(=O)c1c(-c2ccc(F)cc2)oc2cc(N3CCCC3)c(OC)cc12 | Nonstructural protein 5B |  | IC50 | Hepatitis C virus | ≤0.5 µM
CCOC(=O)c1c(C)oc(-c2ccc(Cl)cc2)c1S(=O)(=O)Nc1cc(-c2ccccc2)sc1C(=O)O | NS3 ATPase |  | IC50 | Hepatitis C virus | 5–20 µM
CC[C@@H](C=O)NC(=O)[C@@H]1C[C@@H](OCc2ccccc2)CN1C(=O)[C@@H](NC(=O)c1cccc(Oc2ccccc2)c1)C(C)C | NS3 protease |  | Ki | Hepatitis C virus | 1–100 µM
O=C(Nc1ccsc1-c1nc(C(=O)O)c(O)c(=O)[nH]1)c1ccc(Cl)cc1 | HCV polymerase |  | IC50 | Hepatitis C virus | <25 µM
COc1nc(NCCCN2CCOCC2)nc(Nc2ccc3[nH]ncc3c2)n1 | DNA polymerase | 1 µg/mL | inhibition | Hepatitis B virus | 68%
Cc1ccc(C(=O)Nc2cscc2-c2nc(C(=O)O)c(O)c(=O)[nH]2)s1 | HCV polymerase |  | IC50 | Hepatitis C virus | <25 µM
O=C(O)c1cc2nc(-c3ccc(OCc4ccccc4)cc3)cc(-c3cccc(F)c3)n2n1 | RNA-dependent RNA polymerase |  | IC50 | Hepatitis C virus | >10 µM
O=C(O)c1ccc2c(c1)nc(-c1ccc3nc(-c4cccc5ccccc45)ccc3c1)n2C1CCCCC1 | NS5B polymerase | 33 µM | inhibition | Hepatitis C virus | 98.79%
CC(C)N(C(=O)c1ccc(Cl)cc1Cl)c1cc(-c2ccc(C(=O)O)cc2)sc1C(=O)O | NS3 ATPase |  | IC50 | Hepatitis C virus | <5 µM
Cc1oc(-c2ccc(Cl)cc2)cc1-c1ccc2cc(-c3nc4cc(C(=O)O)ccc4n3C3CCCCC3)ccc2n1 | NS5B polymerase | 33 µM | inhibition | Hepatitis C virus | 99.73%
CC(=O)OCOC(=O)c1nc(-c2ccc(-c3sccc3NC(=O)c3ccccc3)cc2)[nH]c(=O)c1O | HCV polymerase |  | IC50 | Hepatitis C virus | <50 µM
O=C(O)c1cnn2c(-c3ccccc3-c3ccccc3F)ccnc12 | RNA-dependent RNA polymerase |  | IC50 | Hepatitis C virus | >10 µM
CCc1cc2c(C(=O)NC)c(-c3ccc(F)cc3)oc2cc1C(C)=O | Nonstructural protein 5B |  | IC50 | Hepatitis C virus | ≤0.5 µM
O=C(NCCc1ccccn1)Nc1cscc1-c1nc(C(=O)O)c(O)c(=O)[nH]1 | HCV polymerase |  | IC50 | Hepatitis C virus | <25 µM
O=C(O)c1ccc2c(c1)nc(-c1ccc3c(c1)CCC(c1ccccc1)N3)n2C1CCCCC1 | NS5B polymerase | 100 µM | inhibition | Hepatitis C virus | 101%
COc1nc(NCCCN2CCCC2=O)nc(Nc2ccc3cn[nH]c3c2)n1 | DNA polymerase | 0.01 µg/mL | inhibition | Hepatitis B virus | 16%
O=C(O)C1C[C@@H](O)CN1C(=O)c1ccc2c(c1)nc(-c1ccc3nc(-c4ccccc4)cnc3c1)n2C1CCCCC1 | NS5B polymerase | 33 µM | inhibition | Hepatitis C virus | 47.36%
Cc1ccc(C(=O)N(Cc2ccc(F)cc2F)c2cc(-c3ccccc3)sc2C(=O)O)cc1 | NS3 ATPase |  | IC50 | Hepatitis C virus | <5 µM
CCOC(=O)N1CCN(c2nc(Nc3ccc4[nH]ncc4c3)nc(OC)n2)CC1 | DNA polymerase | 1 µg/mL | inhibition | Hepatitis B virus | 43%
CNC(=O)c1c(-c2ccc(F)cc2)oc2cc(-c3ncn[nH]3)c(OC(C)C)cc12 | Nonstructural protein 5B |  | IC50 | Hepatitis C virus | ≤0.5 µM
CC[C@H](C)C(NC(=O)c1ccc2c(c1)nc(-c1ccc3nc(-c4ccccc4)cnc3c1)n2C1CCCCC1)C(=O)O | NS5B polymerase | 100 µM | inhibition | Hepatitis C virus | 97.15%
CS(=O)(=O)c1cccc(Oc2ccc(-c3cnc4c(-c5nn[nH]n5)cnn4c3C3CCCCC3)cc2)c1 | RNA-dependent RNA polymerase |  | IC50 | Hepatitis C virus | 1–10 µM
COc1ccc([N+](=O)[O-])cc1COc1cccc(-c2nc(C(=O)O)c(O)c(=O)[nH]2)c1 | HCV polymerase |  | IC50 | Hepatitis C virus | <100 µM